# Measured values: paper PMC5861052, “Uptake and accumulation of Microcystin-LR based on exposure through drinking water: An animal model assessing the human health risk” (Scientific Reports, 2018)
# Experiment: Screening for depuration product MC-LR-GSH in porcine liver and kidney, experiment 2
# Details: pig, based on raw peak area of the quantifying ion Q, qualitative
substance,measurement,value
Microcystin-LR-Glutathione,MC-LR-GSH level in liver compared with kidney,higher
